Assay: Selectivity index, ratio of IC50 for N-terminal His6-tagged human RNA-N7 MTase expressed in Escherichia coli to IC50 for N7-MTase activity of N-terminal His6-tagged SARS-CoV nsp14 expressed in Escherichia coli

SMILES: Nc1ncnc2c1ncn2[C@@H]1O[C@H](CN(CCO[C@@H]2[C@H](O)[C@@H](CO)O[C@H]2n2cnc3c(N)ncnc32)S(=O)(=O)c2ccc(Cl)c([N+](=O)[O-])c2)[C@@H](O)[C@H]1O
- Ratio IC50: 413
